Test system: SARS-CoV-2 (USA-WA1/2020 variant)
Assay: Virus CPE assay in Vero-E6 cells, USA-WA1/2020
Details: read-out: EC50, inhibition of CPE; USA-WA1/2020, Vero-E6, 4 days

With `O=C(CN1C(=O)[C@@H](NC(=O)c2cc3ccccc3cn2)COc2ccccc21)N[C@@H](C[C@@H]1CCNC1=O)C(=O)COC(=O)c1c(Cl)cccc1Cl` the EC50 was 16.3 µM.
